Measured values from several laboratories, pooled; numbers as filed in NIAID ChemDB.

All rows: growth or infection tests; species: Mycobacterium tuberculosis

An empty or dashed field is not shown.

| SMILES | read by | changes | strain | endpoint | dose | conditions | cells | result |
|---|---|---|---|---|---|---|---|---|
| NNC(=O)c1cccc(Cl)c1 | - | - | - | MIC | - | - | - | >200 µg/mL |
| O=C(NCc1ccccn1)c1cc(Cl)ccc1O | - | - | H37Rv | MIC | - | 21 d | - | 250 µM |
| O=C(Cc1cccs1)N/N=C/c1cccc(F)c1 | resazurin | - | H37Rv (ATCC 27294) | MIC | - | - | - | >100 µg/mL |
| Nc1cccc2c(=O)[nH][nH]c(=O)c12 | - | - | - | MIC | - | - | - | >200 µg/mL |
| CC[C@H]1OC(=O)[C@H](C)C(=O)[C@H](C)[C@@H](O[C@@H]2O[C@H](C)C[C@H](N(C)C)[C@H]2O)[C@](C)(OC)C[C@@H](C)C(=O)[C@H](C)[C@H]2N(CCCCn3cnc(-c4cccnc4)c3)C(=O)O[C@]12C | - | - | Isolate 900145 | MIC | - | - | - | >40 µg/mL |
| CCN(CC)CCNc1ccc(C)c2oc3ccc(O)cc3c(=O)c12 | BACTEC | - | H37Rv | MIC | - | - | - | ≥12.5 µg/mL |
| CO[C@H]1/C=C/O[C@@]2(C)Oc3c(C)c(O)c4c(O)c(c(/C=N/OCCN5CCOCC5)c(O)c4c3C2=O)NC(=O)/C(C)=C\C=C\[C@H](C)[C@H](O)[C@@H](C)[C@@H](O)[C@@H](C)[C@H](OC(C)=O)[C@@H]1C | - | - | H37Rv | MIC | - | - | - | 0.5 µg/mL |
| Cc1c2c(c(C)c3c1[nH]c1ccccc13)C(C#N)N(C(=O)c1ccccc1)C=C2 | resazurin | - | H37Rv | MIC | - | - | VERO | 1.56 µg/mL |
| COC(OC)c1c2c(O)c3c(O)c(C)c4c(c3c1O)C(=O)[C@@](C)(O/C=C/[C@H](OC)[C@@H](C)[C@@H](OC(C)=O)[C@H](C)[C@H](O)[C@H](C)[C@@H](O)[C@@H](C)/C=C/C=C(/C)C(=O)N2)O4 | - | - | H37Rv | MIC | - | - | - | 5 µg/mL |
| CO[C@H]1/C=C/O[C@@]2(C)Oc3c(C)c(=O)c4c(O)c(c5oc6cc(N7CCCC(C)C7)ccc6nc5c4c3C2=O)NC(=O)/C(C)=C\C=C\[C@H](C)[C@H](O)[C@@H](C)[C@@H](O)[C@@H](C)[C@H](OC(C)=O)[C@@H]1C | - | - | H37Rv | MIC | - | - | - | 0.07 µg/mL |
| CCOC(=O)c1cnc2c(ccc3ncccc32)c1Cl | BACTEC | - | H37Rv | inhibition | 12.5 µg/mL | - | - | -6% |
| CCOc1ccc(C(=O)NN=C(C)C)cc1 | - | - | - | MIC | - | - | - | <40 µg/mL |
| O=C(/C=C/c1ccco1)NC(=O)NC(=O)N1CCCCC1 | BACTEC | - | H37Rv | MIC bound | - | - | - | >12.5 µg/mL |
| O=C(NCc1ccccn1)c1cc(Br)cc(Br)c1O | - | - | H37Rv | MIC | - | 21 d | - | 250 µM |
| C[C@@H]1[C@@H](NC(=O)c2cc3c(F)cc(F)cc3[nH]2)C[C@H]2C[C@@H]1C2(C)C | resazurin / fluorescence | - | V2475 | MIC | - | multidrug-resistant | - | 0.0078 µM |
| CO[C@H]1/C=C/O[C@@]2(C)Oc3c(C)c(O)c4c(O)c(c(/C=N/N5CCN(C)CC5)c(O)c4c3C2=O)NC(=O)/C(C)=C\C=C\[C@H](C)[C@H](O)[C@@H](C)[C@@H](O)[C@@H](C)[C@H](OC(C)=O)[C@@H]1C | resazurin | katG mutant isoniazid resistant | INH-R1 | MIC | - | - | - | 0.016 µg/mL |
| O=C(NCc1cccnc1)c1cc(Br)ccc1O | - | - | H37Rv | MIC | - | 14 d | - | 125 µM |
| C=C(C)[C@@H]1CC[C@]2(C(=O)O)CC[C@]3(C)C(CCC4[C@@]5(C)CC[C@H](OC(=O)/C=C/c6ccc(O)c(OC)c6)C(C)(C)C5CC[C@]43C)C12 | resazurin | - | H37Ra | MIC | - | - | - | 200 µg/mL |
| N#Cc1cc2[nH]c3ccc([N+](=O)[O-])cc3c2oc1=O | resazurin | - | H37Rv | MIC99 | - | - | - | 25 µg/mL |
| Cc1ccc2nc(Nc3ccc(Cl)cc3)cc(C(O)C3CCCCN3)c2c1 | resazurin | - | H37Rv | MIC | - | - | - | 3.13 µg/mL |
| CO[C@H]1/C=C/O[C@@]2(C)Oc3c(C)c(O)c4c(=O)c(c5oc6cc(N7CCN(CC(C)C)CC7)cc(=O)c6nc5c4c3=C2O)NC(=O)/C(C)=C\C=C\[C@H](C)[C@H](O)[C@@H](C)[C@@H](O)[C@@H](C)[C@H](OC(C)=O)[C@@H]1C | - | - | 2983 (rifampin-sensitive) | MIC | - | - | - | 0.006 µg/mL |
| O=C(NCc1cccnc1)c1ccccc1O | - | - | H37Rv | MIC | - | 21 d | - | 500 µM |
| Cn1c(=O)c2[nH]c(C(O)C(O)C(O)C(O)CO)nc2n(C)c1=O | BACTEC | - | H37Rv | inhibition | 6.25 µg/mL | - | - | 6% |
| C[C@H]1[C@H](C)CC[C@]2(C(=O)O)CC[C@]3(C)C(=CC[C@@H]4[C@@]5(C)CC[C@H](O)C(C)(C)[C@@H]5CC[C@]43C)[C@H]12 | resazurin | - | H37Ra | MIC | - | - | - | 12.5 µg/mL |
| CO[C@H]1/C=C/O[C@@]2(C)Oc3c(C)c(O)c4c(O)c(c(/C=N/N5CCN(C/C=C/c6ccccc6)CC5)c(O)c4c3C2=O)NC(=O)/C(C)=C\C=C\[C@H](C)[C@H](O)[C@@H](C)[C@@H](O)[C@@H](C)[C@H](OC(C)=O)[C@@H]1C | - | - | 2831 (rifampin-sensitive) | MBC | - | - | - | 0.2 µg/mL |
| O=C(Cc1cccs1)N/N=C/c1ccc([N+](=O)[O-])cc1 | resazurin | - | H37Rv (ATCC 27294) | MIC | - | - | - | >100 µg/mL |
| CCCCN(CCCC)CCNc1ccc(C)c2sc3ccc([N+](=O)[O-])cc3c(=O)c12 | BACTEC | - | H37Rv | MIC | - | - | - | ≥12.5 µg/mL |
| C[C@@H]1CC[C@]2(C(=O)O)CC[C@]3(C)C(=CCC4[C@@]5(C)CC[C@H](OC(=O)/C=C/c6ccc(Cl)cc6)C(C)(C)C5CC[C@]43C)C2[C@H]1C | resazurin | - | H37Ra | MIC | - | - | - | >200 µg/mL |
| C[C@@H]1C(NC(=O)c2cc3c(Cl)cc(Cl)cc3[nH]2)C[C@H]2C[C@@H]1C2(C)C | resazurin / fluorescence | - | KZN494 | MIC | - | multidrug-resistant | - | 0.0156 µM |
| CC(=O)n1cc(CCN)c2cc(O)ccc21 | resazurin | - | - | inhibition | 6.25 µg/mL | - | - | 8% |
| CC(=O)Oc1ccc(/C=N/NC(=O)c2ccccc2)cc1 | - | - | - | MIC | - | - | - | 10 µg/mL |
| COc1cc(-c2nnnn2S(=O)(=O)c2ccc(OC(F)(F)F)cc2)ccc1OCC(O)(Cn1cncn1)c1ccc(Cl)cc1Cl | resazurin | - | H37Rv | MIC100 | - | - | - | 6.25 µg/mL |
| O=c1[nH]c2ccccc2c(=O)n2cccc12 | BACTEC | - | H37Rv | MIC bound | - | - | - | >12.5 µg/mL |
| Cc1ccc(C(=O)NCc2cccnc2)c(O)c1 | - | - | H37Rv | MIC | - | 21 d | - | 500 µM |
| C=C(C)[C@@H]1CC[C@]2(C(=O)O)CC[C@]3(C)[C@H](CC[C@@H]4[C@@]5(C)CC[C@H](O)C(C)(C)[C@@H]5CC[C@]43C)[C@@H]12 | resazurin | - | H37Ra | MIC | - | - | - | 50 µg/mL |
| CC1=NNC(=O)C1=C(C)C | - | - | - | MIC | - | - | - | >200 µg/mL |
| COC(=O)C(=O)C(C(=O)c1cccc2ccccc12)c1nc2n(c1O)C(=N)N=N2 | resazurin | - | H37Rv | inhibition | 6.25 µg/mL | - | - | 12% |
| CCN(CC)c1ccc2nc3c(oc2c1)c1c(O)c2c(=O)c(C)c4c(c23)C(=O)[C@@](C)(O/C=C/[C@H](OC)[C@@H](C)[C@@H](OC(C)=O)[C@H](C)[C@H](O)[C@H](C)[C@@H](O)[C@@H](C)/C=C/C=C(/C)C(=O)N1)O4 | - | - | H37Rv | MIC | - | - | - | 0.07 µg/mL |
| CO[C@H]1/C=C/O[C@@]2(C)Oc3c(C)c(O)c4c(O)c(c(C=NN5CCCCC5)c(O)c4c3C2=O)NC(=O)/C(C)=C\C=C\[C@H](C)[C@H](O)[C@@H](C)[C@@H](O)[C@@H](C)[C@H](OC(C)=O)[C@@H]1C | - | - | H37Rv | MIC | - | - | - | 0.05 µg/mL |
| O=C(NNS(=O)(=O)c1ccc([N+](=O)[O-])cc1)c1ccccc1 | - | - | - | MIC | - | - | - | 200 µg/mL |
| O=C(NCc1ccccn1)c1ccc(Cl)cc1O | - | - | H37Rv | MIC | - | 21 d | - | 250 µM |
| Cl.Cl.FC(F)(F)c1ccc2c(c1)N(CCCN1CCN(CCOc3ccccc3)CC1)c1ccccc1S2 | - | - | H37Rv | MIC | - | - | - | 12.5 µg/mL |
| COc1cc(-c2nnnn2S(=O)(=O)c2ccc(C)cc2)ccc1OCC(O)(Cn1cncn1)c1ccc(F)cc1F | resazurin | - | H37Rv | MIC100 | - | - | - | 6.25 µg/mL |
| NC1[C@H]2CN(c3nc4c(cc3F)c(=O)c(C(=O)O)cn4-c3ccc(F)cc3F)C[C@@H]12 | - | - | 45 strains (drug-susceptible) | MIC50 | - | - | - | >4 µg/mL |
| O=C(Cc1cccs1)N/N=C/c1ncc[nH]1 | resazurin | - | H37Rv (ATCC 27294) | MIC | - | - | - | >100 µg/mL |
| COc1ccc(S(=O)(=O)n2nnnc2-c2ccc(OCC(O)(Cn3cncn3)c3ccc(Cl)cc3Cl)c(OC)c2)cc1 | resazurin | - | H37Rv | MIC100 | - | - | - | 6.25 µg/mL |
| O=C(Cc1cccs1)N/N=C/c1ccc(F)cc1 | resazurin | - | H37Rv (ATCC 27294) | MIC | - | - | - | >100 µg/mL |
| O=C(CC1Sc2ccccc2NC1=O)NNc1ccc(F)cc1 | BACTEC | - | H37Rv | MIC | - | - | - | ≥12.5 µg/mL |
| CO[C@H]1/C=C/O[C@@]2(C)Oc3c(C)c(O)c4c(O)c(c(/C=N/N5C(C)CN(Cc6ccccc6)CC5C)c(O)c4c3C2=O)NC(=O)/C(C)=C\C=C\[C@H](C)[C@H](O)[C@@H](C)[C@@H](O)[C@@H](C)[C@H](OC(C)=O)[C@@H]1C | - | - | H37Rv | MIC | - | - | - | 0.2 µg/mL |
| N=C1N=Nc2nc(C(C(=O)c3cccc([N+](=O)[O-])c3Cl)c3nc4n(c3O)C(=N)N=N4)c(O)n21 | resazurin | - | H37Rv | MIC bound | - | - | - | >6.25 µg/mL |
| C[C@@H]1CC[C@]2(C(=O)O)CC[C@]3(C)C(=CCC4[C@@]5(C)CC[C@H](OC(=O)/C=C/c6ccc(O)cc6)C(C)(C)C5CC[C@]43C)C2[C@H]1C | resazurin | - | H37Ra | MIC | - | - | - | 6.25 µg/mL |
| NNC(=O)c1ccncc1 | resazurin | rpoB mutant rifampicin-resistant | RIF-R1 | MIC | - | - | - | 0.056 µg/mL |
| O=[N+]([O-])c1ccc(C2=Nn3cnnc3SC2)o1 | BACTEC | - | H37Rv | inhibition | 12.5 µg/mL | - | - | 72% |
| CCCCCCCNC(=O)c1cc2c(Cl)cc(Cl)cc2[nH]1 | resazurin / fluorescence | - | H37Rv | MIC | - | - | - | 391 µM |
| N#Cc1cc2[nH]c3ccc(O)cc3c2oc1=O | resazurin | - | H37Rv | MIC99 | - | - | - | 25 µg/mL |
| COc1cc(-c2nnnn2S(=O)(=O)c2ccc(C)cc2)ccc1OCC(O)(Cn1cncn1)c1ccc(Cl)cc1Cl | resazurin | - | H37Rv | MIC100 | - | - | - | 3.12 µg/mL |
| Cc1cccc(C(=O)NCc2cccnc2)c1O | - | - | H37Rv | MIC | - | 21 d | - | 250 µM |
| C1CCNC1.S=C(S)N1CCCC1 | - | - | INH-r | MIC | - | - | - | 0.2 µg/mL |
| C=CCCCC#CCC#CCCCCCCCC(=O)NN | - | - | - | MIC | - | - | - | >200 µg/mL |
| CO[C@H]1/C=C/O[C@@]2(C)Oc3c(C)c(=O)c4c(O)c(c5oc6cc(N7CCCCCC7)ccc6nc5c4c3C2=O)NC(=O)/C(C)=C\C=C\[C@H](C)[C@H](O)[C@@H](C)[C@@H](O)[C@@H](C)[C@H](OC(C)=O)[C@@H]1C | - | - | H37Rv | MIC | - | - | - | 0.07 µg/mL |
| NC(=O)c1nnn2c1nc(N)c1ccccc12 | BACTEC | - | H37Rv | MIC bound | - | - | - | >12.5 µg/mL |
| CO[C@H]1/C=C/O[C@@]2(C)Oc3c(C)c(O)c4c(O)c(c(/C=N/N=C/c5ccccc5)c(O)c4c3C2=O)NC(=O)/C(C)=C\C=C\[C@H](C)[C@H](O)[C@@H](C)[C@@H](O)[C@@H](C)[C@H](OC(C)=O)[C@@H]1C | - | - | H37Rv | MIC | - | - | - | 1 µg/mL |
| Cc1ccccc1S(=O)(=O)NNc1ccccc1 | - | - | - | MIC | - | - | - | >200 µg/mL |
| CCc1ccc2[nH]c3cc(C#N)c(=O)oc3c2c1 | resazurin | - | H37Rv | MIC99 | - | - | - | 1.6 µg/mL |
| CC(C)=NNC(=O)c1ccc(NS(=O)(=O)c2ccccc2)cc1 | - | - | - | MIC | - | - | - | >200 µg/mL |
| COc1ccc([C@H]2OC[C@H]3[C@@H]2CO[C@@H]3c2ccc(OC)c(OC)c2)cc1OC | BACTEC | - | H37Rv | MIC bound | - | - | - | >12.5 µg/mL |
| O=C(NCc1cccnc1)c1ccc(Cl)cc1O | - | - | H37Rv | MIC | - | 14 d | - | 125 µM |
| CC1=NN(C(=O)c2cccnc2)C(=O)C1N=Nc1ccc(S(=O)(=O)N=C(N)N)cc1 | BACTEC | - | H37Rv | inhibition | 12.8 µg/mL | - | - | 7% |
| CO[C@H]1/C=C/O[C@@]2(C)Oc3c(C)c(O)c4c(O)c(c(/C=N/N5CCCC(O)C5)c(O)c4c3C2=O)NC(=O)/C(C)=C\C=C\[C@H](C)[C@H](O)[C@@H](C)[C@@H](O)[C@@H](C)[C@H](OC(C)=O)[C@@H]1C | - | - | H37Rv | MIC | - | - | - | 0.05 µg/mL |
| CCN(CCNc1ccc(C)c2sc3ccccc3c(=O)c12)CC(C)(C)O | BACTEC | - | H37Rv | inhibition | 12.5 µg/mL | - | - | 99% |
| CO/N=C1\CN(c2nc3c(cc2F)c(=O)c(C(=O)O)cn3C2CC2)CC1CN | - | - | 82 strains | MIC50 | - | - | - | 4 µg/mL |
| C[N+](C)(C)CC(=O)N/N=C/c1cccs1.[Cl-] | BACTEC | - | H37Rv | MIC bound | - | - | - | >12.5 µg/mL |
| Cc1ccc(C(=O)NCc2ccccn2)c(O)c1 | - | - | H37Rv | MIC | - | 14 d | - | 62.5 µM |

MIC bound comes from a single tested concentration. Inhibition is in % at the dose shown (toxicity tests: loss of growth or viability). Rows are shuffled and stem from different studies. MIC50, MIC90 and the like: level of inhibition, or share of isolates inhibited.